Measured values: ChEMBL document CHEMBL4373711, “Development of 3,5-Dinitrophenyl-Containing 1,2,4-Triazoles and Their Trifluoromethyl Analogues as Highly Efficient Antitubercular Agents Inhibiting Decaprenylphosphoryl-β-d-ribofuranose 2'-Oxidase” (J Med Chem, 2019)

What was measured:
[1] = tested on: Mycobacterium tuberculosis; conditions: Praha 4
[2] = tested on: Mycobacterium tuberculosis; conditions: 234/2005

## GENTAMICIN
[1]
  MIC>99: 0.5 µM
[2]
  MIC>99: 0.25 µM
